Results of unrelated studies side by side (data: NIAID ChemDB).

All rows: cytotoxicity tests; cells: CEM; measure: CC50

Blank or dashed fields: not listed here. CCn is the concentration with n% toxicity to the cells. Rows are shuffled and stem from different studies.

smiles | method | result
Cc1cc(S(=O)(=O)Nc2n[nH]c(Nc3ccccc3)n2)c(S)cc1Cl |  | >200 µM
Nc1ncn([C@H]2C[C@H](O)[C@@H](CO)O2)c(=O)n1 |  | >1 µM
Cc1cc(S(=O)(=O)Nc2nc(N)n(-c3ccccc3)n2)c(S)cc1Cl |  | >200 µM
N#Cc1c(N)nc(N)nc1OCCOCP(=O)(O)O |  | ≥100 µg/mL
CN[C@@H]1[C@H](O[C@@H]2OC[C@@H](O)[C@H](O)[C@H]2O)[C@@H](O)[C@H](O[C@H]2c3cc(C)c(C(=O)N[C@H](C)C(=O)O)c(O)c3-c3c(cc4c(c3O)C(=O)c3cc(OC)cc(O)c3C4=O)[C@@H]2O)O[C@@H]1C |  | >120 µM
COC1(C)C(=O)NC(=O)N([C@H]2C=C[C@@H](CO)O2)[C@H]1O |  | >170 µM
Nc1nc(N)c(Br)c(OCCOCP(=O)(O)O)n1 |  | >100 µg/mL
O=S(=O)(Nc1nnc2c3ccccc3ccn12)c1ccc(F)cc1S |  | >200 µM
Nc1nc2c(ncn2[C@H]2CC[C@@H](CO)C2)c(=O)o1 |  | >500 µg/mL
CO[C@H]1N([C@H]2C=C[C@@H](CO)O2)C(=O)NC(=O)[C@]1(C)Cl |  | >1030 µM
CN(C)CCCNC(=O)c1cc(NC(=O)c2cc(NC(=O)c3cc(NC(=O)c4ccnc(C(=O)Nc5cc(C(=O)Nc6cc(C(=O)Nc7cc(C(=O)NCCCN(C)C)n(C)c7)n(C)c6)n(C)c5)c4)cn3C)cn2C)cn1C |  | >100 µM
Nc1ccn([C@@H]2O[C@H](CO)C[C@@H]2F)c(=O)n1 |  | 61.8 µg/mL
Cc1cc(S(=O)(=O)Nc2nc(N)nc(N3CCCCC3)n2)c(S)cc1Cl |  | >200 µM
O=C(CNC(=O)c1ccccc1SCC(=O)NC12CC3CC4CC(C1)C4(C3)C2)Nc1ccc(Cl)cc1 | trypan blue | 5 µM
Cc1cn([C@H]2C[C@H](N=[N+]=[N-])[C@@H](CO)O2)c(=O)[nH]c1=O |  | >1000 µM
Nc1ccn([C@@H]2C=C(F)[C@H](CO)O2)c(=O)n1 |  | >100 µM
Cc1cn([C@@H]2O[C@H](CO)C[C@@H]2F)c(=O)[nH]c1=O |  | >25 µg/mL
Cc1cn([C@H]2C=C[C@@H](COP(=O)(O)OP(=O)(O)OP(=O)(O)O)O2)c(=O)[nH]c1=O |  | 79 µM
CN(C)CCCNC(=O)c1cc(NC(=O)c2cc(NC(=O)c3cc(NC4C(=O)c5ccccc5C4=O)cn3C)cn2C)cn1C |  | 56 µM
Nc1ncnc2c1ncn2[C@@H]1C[C@H](OCP(=O)(O)O)CC1(F)F |  | >100 µM
CCn1c(=O)c(C)cn([C@@H]2O[C@H](CO[Si](C)(C)C(C)(C)C)[C@@]3(NS(=O)(=O)C=C3N)[C@H]2O[Si](C)(C)C(C)(C)C)c1=O |  | 4.9 µM
Cc1cn([C@H]2C[C@@H]3NC(NC#N)=NC[C@H]3O2)c(=O)[nH]c1=O | MTT | >100 µg/mL
Cc1cn([C@@H]2O[C@H](CO)C[C@H]2F)c(=O)[nH]c1=O |  | >100 µM
CC(C)(C)[Si](C)(C)OC[C@H]1O[C@@H](n2ccnn2)[C@H](O[Si](C)(C)C(C)(C)C)C12OS(=O)(=O)C=C2N |  | >3.4 µM
COP(=O)(C[C@H](NP(=O)(O)OC[C@@H]1C=C[C@H](n2cc(C)c(=O)[nH]c2=O)O1)C(=O)O)OC | MTT | 259 µM
COc1cc(Nc2nc(NS(=O)(=O)c3cc(C)c(Cl)cc3S)n[nH]2)cc(OC)c1OC |  | >200 µM
Nc1ccn([C@@H]2CS[C@H](CO)O2)c(=O)n1 |  | 10.73 ± 0.22 µM
O=C(Nc1ccc(O)c(O)c1)c1ccc2ccc(C(=O)O)c(O)c2n1 | MTT | 100 µM
O=c1[nH]c(=O)n([C@H]2C[C@H](O)[C@@H](CO)O2)cc1C12B3B4B5B6B(B3B1B42)B1B5C61 |  | 70.9 µM
COc1cc(CNC(=O)c2ccc3ccc(C(=O)O)c(O)c3n2)cc(O)c1O | MTT | 100 µM
COC(=O)c1cn([C@@H]2O[C@H](CO[Si](C)(C)C(C)(C)C)C3(OS(=O)(=O)C=C3N)[C@H]2O[Si](C)(C)C(C)(C)C)nn1 |  | >0.18 µM
CCCCCCCCCCCCCC(=O)OC[C@H](COP(=O)(O)OP(=O)(O)OC[C@@H]1CC[C@H](n2cc(C)c(=O)[nH]c2=O)O1)OC(=O)CCCCCCCCCCCCC | trypan blue | 430 µM
Cc1cn([C@@H]2O[C@H](CO[Si](C)(C)C(C)(C)C)[C@@]3(NS(=O)(=O)C=C3N)[C@H]2O[Si](C)(C)C(C)(C)C)c(=O)n(C(=O)OC(C)(C)C)c1=O |  | 21.2 µM
Cn1cc(NC(=O)c2cc(NC(=O)CCCCCCCCCC(=O)Nc3cc(C(=O)Nc4cc(C(=O)NCCC(N)=[NH2+])n(C)c4)n(C)c3)cn2C)cc1C(=O)NCCC(N)=[NH2+] |  | 57 µM
CCOP(=O)(CO[C@H]1C[C@@H](n2cnc3c(N)ncnc32)C(F)(F)C1)OCC |  | >100 µM
O=C(Nc1ccccc1C(=O)N[C@@H](Cc1ccccc1)[C@H](O)[C@H](O)[C@H](Cc1ccccc1)NC(=O)c1ccccc1NC(=O)OCc1ccccn1)OCc1ccccn1 |  | >0.06 µM
O=C(NCc1ccc(O)c(O)c1)Nc1ccc2ccc(C(=O)O)c(O)c2n1 | MTT | >100 µM
CC(=O)c1cn([C@@H]2O[C@H](CO[Si](C)(C)C(C)(C)C)C3(OS(=O)(=O)C=C3N)[C@H]2O[Si](C)(C)C(C)(C)C)nn1 |  | >1.1 µM
CC(C)CN(C[C@@H](O)[C@H](Cc1ccccc1)NC(=O)OCc1ccccc1)S(=O)(=O)c1ccccc1 |  | 8 µM
O=C(Nc1ccccc1C(=O)N[C@@H](Cc1ccccc1)C[C@H](O)[C@H](Cc1ccccc1)NC(=O)c1cccc(O)c1)OCc1ccccn1 |  | >0.3 µM
Cc1cc(SC2=C(O)C[C@@](CCc3ccc(O)cc3)(C(C)C)OC2=O)c(C(C)(C)C)cc1N |  | 211 µM
Cc1c(N)nc(N)nc1OCCOCP(=O)(O)O |  | 3.4 µg/mL
C[C@@]1(Br)C(=O)NC(=O)N([C@H]2C=C[C@@H](CO)O2)[C@H]1N=[N+]=[N-] |  | 44.7 µM
c1nc[nH]n1 | MTT | >100 µg/mL
Cc1cn([C@@H]2O[C@H](CO[Si](C)(C)C(C)(C)C)[C@]3(C(N)=CS(=O)(=O)N3C)[C@H]2O[Si](C)(C)C(C)(C)C)c(=O)[nH]c1=O |  | 21.6 µM
CO[C@H]1N([C@H]2C=C[C@@H](CO)O2)C(=O)NC(=O)[C@]1(C)Br |  | >128 µM
Nc1cccc(C(=O)N[C@@H](Cc2ccccc2)[C@@H](O)C[C@H](Cc2ccccc2)NC(=O)c2ccccc2NC(=O)OCc2ccccn2)c1 |  | >0.25 µM
Cn1cc(NC(=O)c2cc(NC(=O)c3cc(NC=O)cn3C)cn2C)cc1C(=O)NCCC(=N)N |  | 30.4 µM
Cc1ccccc1C(=O)N[C@@H](Cc1ccccc1)[C@@H](O)C[C@H](Cc1ccccc1)NC(=O)c1ccccc1NC(=O)OCc1ccccn1 |  | >0.5 µM
CCO[C@@H]1N([C@H]2C=C[C@@H](CO)O2)C(=O)NC(=O)[C@@]1(C)Br |  | >14 µM
O=C(NCc1ccc(O)c(O)c1O)c1ccc2ccc(C(=O)O)c(O)c2n1 | MTT | >100 µM
Nc1nc2c(ncn2[C@@H]2O[C@H](CO)[C@@H](O)[C@H]2O)c(=O)o1 |  | 440 µg/mL
O=C(O)c1ccc2ccc(/C=C/c3ccc(O)c(O)c3)nc2c1O |  | >100 µM
Nc1ncnc2c1ncn2CCOCP(=O)(O)O |  | 50.3 µM
Cc1cn([C@H]2C=C[C@@H](CO)O2)c(=O)[nH]c1=O | MTT | 268 µM
Nc1ccc(C(=O)N[C@@H](Cc2ccccc2)[C@@H](O)C[C@H](Cc2ccccc2)NC(=O)c2ccccc2NC(=O)OCc2ccccn2)cc1 |  | >0.5 µM
O=C(Nc1ccccc1C(=O)N[C@@H](Cc1ccccc1)[C@H](O)[C@H](O)[C@H](Cc1ccccc1)NC(=O)c1ccccc1NC(=O)OCc1ccccn1)OCc1ccccn1 |  | >10 µM
CN=C1N(C)C(=O)OC12[C@@H](CO[Si](C)(C)C(C)(C)C)O[C@@H](n1cc(C)c(=O)n(C)c1=O)[C@@H]2O[Si](C)(C)C(C)(C)C |  | ≥175 µM
C[C@]1(Br)C(=O)NC(=O)N([C@H]2C=C[C@@H](CO)O2)[C@@H]1N=[N+]=[N-] |  | 44.7 µM
COc1cccc(Nc2nc(NS(=O)(=O)c3cc(C)c(Cl)cc3S)n[nH]2)c1 |  | 185 µM
Cn1c(=O)sn(-c2cccc3ccccc23)c1=O | MTS | >10 µM
C[C@]1(Br)C(=O)NC(=O)N([C@H]2C=C[C@@H](CO)O2)[C@@H]1O |  | >200 µM
Cc1cn([C@@H]2O[C@H](CO[Si](C)(C)C(C)(C)C)[C@]3(C(N)=CS(=O)(=O)N3C)[C@H]2O[Si](C)(C)C(C)(C)C)c(=O)n(C(=O)OC(C)(C)C)c1=O |  | 20.6 µM
CC(C)(C)[Si](C)(C)OC[C@H]1O[C@@H](n2nncc2C(N)=O)[C@H](O[Si](C)(C)C(C)(C)C)[C@]12OS(=O)(=O)C=C2N |  | >0.14 µM
Cc1cc(S(=O)(=O)Nc2nc(N)nc3nc4ccccc4n23)c(S)cc1Cl |  | >200 µM
Nc1nc2c(ncn2[C@@H]2O[C@H](COP(=O)(O)O)[C@@H](O)[C@H]2O)c(=O)o1 |  | >500 µg/mL
CCOC(=O)/C=C/C1=C(N)C2(OS1(=O)=O)[C@@H](CO[Si](C)(C)C(C)(C)C)O[C@@H](n1cc(C)c(=O)[nH]c1=O)[C@@H]2O[Si](C)(C)C(C)(C)C |  | 174 µM
Cc1cccc2c1OP(=O)(OC[C@@H]1C[C@H](F)[C@H](n3cnc4c(=O)[nH]cnc43)O1)OC2 |  | 91.9 µM
COC(=O)[C@H](C)N[P@](=O)(OC[C@@H]1C=C[C@H](n2cc(C)c(=O)[nH]c2=O)O1)Oc1ccccc1C |  | >250 µM
COC(=O)[C@H](C)NP(=O)(OC[C@@H]1C=C[C@H](n2cc(C)c(=O)[nH]c2=O)O1)Oc1ccc(Br)cc1 |  | >10 µM
Cc1cccc(Cl)c1-n1sc(=O)n(CC2CC2)c1=O | MTS | >10 µM
O=C(NNc1ccc([N+](=O)[O-])cc1[N+](=O)[O-])c1ccc2ccc(C(=O)O)c(O)c2n1 | MTT | >100 µM

A second listing of 10 rows from above:

smiles	method	result
O=S(=O)(Nc1nnc2c3ccccc3ccn12)c1ccc(F)cc1S		>200 µM
Cc1cn([C@@H]2O[C@H](CO[Si](C)(C)C(C)(C)C)[C@]3(C(N)=CS(=O)(=O)N3C)[C@H]2O[Si](C)(C)C(C)(C)C)c(=O)n(C(=O)OC(C)(C)C)c1=O		20.6 µM
COC(=O)[C@H](C)NP(=O)(OC[C@@H]1C=C[C@H](n2cc(C)c(=O)[nH]c2=O)O1)Oc1ccc(Br)cc1		>10 µM
CC(=O)c1cn([C@@H]2O[C@H](CO[Si](C)(C)C(C)(C)C)C3(OS(=O)(=O)C=C3N)[C@H]2O[Si](C)(C)C(C)(C)C)nn1		>1.1 µM
O=C(Nc1ccc(O)c(O)c1)c1ccc2ccc(C(=O)O)c(O)c2n1	MTT	100 µM
Cc1ccccc1C(=O)N[C@@H](Cc1ccccc1)[C@@H](O)C[C@H](Cc1ccccc1)NC(=O)c1ccccc1NC(=O)OCc1ccccn1		>0.5 µM
O=c1[nH]c(=O)n([C@H]2C[C@H](O)[C@@H](CO)O2)cc1C12B3B4B5B6B(B3B1B42)B1B5C61		70.9 µM
O=C(Nc1ccccc1C(=O)N[C@@H](Cc1ccccc1)[C@H](O)[C@H](O)[C@H](Cc1ccccc1)NC(=O)c1ccccc1NC(=O)OCc1ccccn1)OCc1ccccn1		>0.06 µM
O=C(NNc1ccc([N+](=O)[O-])cc1[N+](=O)[O-])c1ccc2ccc(C(=O)O)c(O)c2n1	MTT	>100 µM
Cn1cc(NC(=O)c2cc(NC(=O)c3cc(NC=O)cn3C)cn2C)cc1C(=O)NCCC(=N)N		30.4 µM